Anti-infective test results gathered from many reports (values: NIAID ChemDB through PubChem).

Common to all: tests in culture; organism: HIV-1; endpoint: fold resistance

An empty or dashed field is not shown. Conditions beyond the fields shown may differ between rows. Fold resistance has wild type as its base.

compound	mutations	cells	read by	strain	result
Cc1cn([C@@H]2O[C@H](CO[Si](C)(C)C(C)(C)C)C3(OS(=O)(=O)C=C3N)[C@H]2O[Si](C)(C)C(C)(C)C)c(=O)n(C)c1=O	RT-L100I	CEM	syncytia	IIIB TIBO R82150-resistant (RT L100I)	1.67
Nc1nc2c(ncn2[C@H]2CO[C@@H](CO)O2)c(=O)[nH]1	RT-M41L L74V V106A T215Y	-	-	-	~2.5
CCCc1cc(=O)oc2c3c(c4c(c12)OC(C)(C)C=C4)O[C@@H](C)[C@H](C)[C@@H]3O	RT-Y181C	CEM + CEM-SS	cytopathic effect / XTT	UC82-R (RT-Y181C)	0.2
CC(C)=CCN1c2cc(Cl)cc3[nH]c(=S)n(c23)C[C@@H]1C	RT-D67N K70R T215Y K219Q	MT-4	-	-	0.5
Cc1cn([C@H]2C=C[C@@H](CO)O2)c(=O)[nH]c1=O	RT-L74V	MT-4	cytopathic effect	AJ-05.93 (HXB2(RT-L74V))	62.4
Cc1cn([C@@H]2O[C@H](CO[Si](C)(C)C(C)(C)C)[C@@]3(OS(=O)(=O)C=C3N)[C@H]2O[Si](C)(C)C(C)(C)C)c(=O)[nH]c1=O	RT-Y181C	CEM	syncytia	IIIB nevirapine-resistant (RT Y181C)	83.3
C#C[C@]1(CO)O[C@@H](n2cc(I)c(=O)[nH]c2=O)C[C@@H]1O	RT-M184V	HeLa	β-galactosidase	-	0.568
O=c1[nH]cnc2c1ncn2[C@H]1CC[C@@H](CO)O1	RT-Y181C	MT-4	cytopathic effect / MTT	NNRTI-resistant (RT Y181C)	0.3
Cc1occc1C(=S)Nc1ccc(Cl)c(/C=N/OC(C)(C)C)c1	RT-M184V	CEM	syncytia	IIIB	0.14
CCOCn1c(Cc2cc(C)cc(C)c2)c(CC)c(=O)[nH]c1=O	RT-L100I Y188H	CEM	syncytia	IIIB TIBO R82913 STR-B22 (RT L100I Y188H)	120
Cc1cn([C@H]2C[C@H](N=[N+]=[N-])[C@@H](CO)O2)c(=O)[nH]c1=O	RT-D67N K70R T215Y	HT4 + HT4-6C	plaque count	P026B (RT D67N K70R T215Y)	280
COC(=O)N[C@@H](Cc1c[nH]c2ccccc12)C(=O)NCCCC[C@@H](CO)N(CC(C)C)S(=O)(=O)c1ccc(N)cc1	PR-M46I V82T I84V 10R 63P	MT-4	cytopathic effect / MTT	NL4-3	3.6
Cc1cn([C@H]2C=C[C@@H](COC(=O)NCCSC(=O)OC[C@@H]3C=C[C@H](n4cc(C)c(=O)[nH]c4=O)O3)O2)c(=O)[nH]c1=O	RT-K103N Y181C	MT-4	cytopathic effect / MTT	NNRTI-resistant (RT K103N Y181C)	>0.44
C/C=C/CSc1cc(NC(=S)c2ccsc2C)ccc1Cl	RT-T139I	CEM + CEM-SS	cytopathic effect / XTT	Calanolide A-resistant (RT T139I)	2
Cc1cn([C@@H]2O[C@H](CO[Si](C)(C)C(C)(C)C)C3(OS(=O)(=O)C=C3N)[C@H]2O[Si](C)(C)C(C)(C)C)c(=O)n(C)c1=O	RT-L100I	CEM	syncytia	IIIB	1.75
C#C[C@]1(CO)O[C@@H](n2cc(C)c(=O)[nH]c2=O)C[C@@H]1O	RT-L74V	HeLa	β-galactosidase	-	1.89
Cc1occc1C(=S)Nc1ccc(Cl)c(/C=N/OC(C)(C)C)c1	RT-M184I	CEM + CEM-SS	cytopathic effect / XTT	3TC-RS (RT-M184I)	1
Cc1cn([C@H]2C[C@H](N=[N+]=[N-])[C@@H](CO)O2)c(=O)[nH]c1=O	RT-V108I	CEM + CEM-SS	XTT	Thiazolobenzimidazole-resistant (RT V108I)	0.8
CCn1c(=O)c(C)cn([C@@H]2O[C@H](CO[Si](C)(C)C(C)(C)C)C3(OS(=O)(=O)C=C3N)[C@H]2O[Si](C)(C)C(C)(C)C)c1=O	RT-K103N	CEM	syncytia	IIIB TIBO R82913 STR-2 (RT K103N)	10.7
Nc1ccn([C@H]2C[C@H](O)[C@](CO)(CF)O2)c(=O)n1	RT-M41L T215Y	HeLa	β-galactosidase	RT-M41L/T215Y	0.761
Nc1ncnc2c1ncn2CC(CF)OCP(=O)(O)O	RT-L100I Y188H	CEM	syncytia	IIIB TIBO R82913 STR-B22 (RT L100I Y188H)	1.33
Cc1ccnc2c1NC(=O)c1cccnc1N2C1CC1	RT-M184I	CEM + CEM-SS	cytopathic effect / XTT	3TC-RS (RT-M184I)	1
Nc1ccn([C@@H]2CC[C@H](CO)O2)c(=O)n1	RT-M184V	HT4 + HT4 LacZ-1	-	184V (RT-M184V)	45
Cc1ccnc2c1NC(=O)c1cccnc1N2C1CC1	RT-K103N	CEM + CEM-SS	XTT	NL4-3	>100
Cc1occc1C(=S)Nc1ccc(Cl)c(C(=O)OC2CCCC2)c1	RT-K103N	CEM	syncytia	IIIB	140
O=c1[nH]cnc2c1ncn2[C@H]1CC[C@@H](CO)O1	RT-L74V	MT-4	cytopathic effect	AJ-05.93 (HXB2(RT-L74V))	3.38
Nc1nc(NC2CC2)c2ncn([C@H]3C=C[C@@H](CO)C3)c2n1	RT-V118I M184V	HeLa	luciferase	Recombinant	4.9
Nc1ccn([C@H]2CC[C@@H](CO)O2)c(=O)n1	RT-L74V	HT4 + HT4 LacZ-1	-	74V (RT-L74V)	8.16
CCOCn1c(Cc2ccccc2)c(C(C)C)c(=O)[nH]c1=O	RT-K103N	CEM	syncytia	IIIB	380
CC(C)Nc1cccnc1N1CCN(C(=O)c2cc3cc(NS(C)(=O)=O)ccc3[nH]2)CC1	RT-T69N K70R Q151M	MT-4	cytopathic effect	NI-10.93 (HXB2 RT T69N K70R Q151M)	2
Cn1c2ccccc2c2c1cc(C#N)c(=O)n2-c1ccc([N+](=O)[O-])cc1	RT-M41L D67N M184V L210W T215Y	HeLa	luciferase	NRTI resistant	5.7
Cc1cn([C@H]2C[C@H](N=[N+]=[N-])[C@@H](COC(=O)NCCSC(=O)OC[C@H]3O[C@@H](n4cc(C)c(=O)[nH]c4=O)C[C@@H]3N=[N+]=[N-])O2)c(=O)[nH]c1=O	RT-K103N Y181C	MT-4	cytopathic effect / MTT	NNRTI-resistant (RT K103N Y181C)	1
Cc1cn([C@H]2C=C[C@@H](CO)O2)c(=O)[nH]c1=O	RT-M41L S68N G112S M184V	HeLa	luciferase	Recombinant	0.6
CC(C)=CCN1Cc2cccc3[nH]c(=S)n(c23)C[C@@H]1C	RT-Y181C	CEM + CEM-SS	cytopathic effect / XTT	RF	>3330

For reference, 5 entries again:

Cc1occc1C(=S)Nc1ccc(Cl)c(/C=N/OC(C)(C)C)c1 ; mutations: RT-M184V ; cells: CEM ; read by: syncytia ; strain: IIIB ; result: 0.14
Cc1ccnc2c1NC(=O)c1cccnc1N2C1CC1 ; mutations: RT-K103N ; cells: CEM + CEM-SS ; read by: XTT ; strain: NL4-3 ; result: >100
Cc1cn([C@@H]2O[C@H](CO[Si](C)(C)C(C)(C)C)[C@@]3(OS(=O)(=O)C=C3N)[C@H]2O[Si](C)(C)C(C)(C)C)c(=O)[nH]c1=O ; mutations: RT-Y181C ; cells: CEM ; read by: syncytia ; strain: IIIB nevirapine-resistant (RT Y181C) ; result: 83.3
CCOCn1c(Cc2ccccc2)c(C(C)C)c(=O)[nH]c1=O ; mutations: RT-K103N ; cells: CEM ; read by: syncytia ; strain: IIIB ; result: 380
CCn1c(=O)c(C)cn([C@@H]2O[C@H](CO[Si](C)(C)C(C)(C)C)C3(OS(=O)(=O)C=C3N)[C@H]2O[Si](C)(C)C(C)(C)C)c1=O ; mutations: RT-K103N ; cells: CEM ; read by: syncytia ; strain: IIIB TIBO R82913 STR-2 (RT K103N) ; result: 10.7